Target: T1, Pokeweed antiviral protein (PAP) (Phytolacca americana (pokeweed), UniProt P10297 23-285)
T1 construct: mature
T1 sequence: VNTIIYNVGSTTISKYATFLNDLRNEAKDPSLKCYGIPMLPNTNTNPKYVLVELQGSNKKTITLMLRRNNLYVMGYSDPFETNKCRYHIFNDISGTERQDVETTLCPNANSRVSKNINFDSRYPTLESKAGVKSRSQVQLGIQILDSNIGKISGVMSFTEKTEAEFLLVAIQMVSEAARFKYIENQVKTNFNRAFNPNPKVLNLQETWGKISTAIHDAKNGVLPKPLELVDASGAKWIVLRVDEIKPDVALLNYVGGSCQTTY
Assay: co-immunoprecipitation, isolated proteins in vitro

B1: Mak8-1p (mutant yeast L3, W255C, P257S), in vitro synthesized, free form (other)
chain: MSHRKYEAPRHGHLGFLPRKRAASIRARVKAFPKDDRSKPVALTSFLGYKAGMTTIVRDLDRPGSKFHKREVVEAVTVVDTPPVVVVGVVGYVETPRGLRSLTTVWAEHLSDEVKRRFYKNWYKSKKKAFTKYSAKYAQDGAGIERELARIKKYASVVRVLVHTQIRKTPLAQKKAHLAEIQLNGGSISEKVDWAREHFEKTVAVDSVFEQNEMIDAIAVTKGHGFEGVTHRWGTKKLPRKTHRGLRKVACIGACHSAHVMWSVARAGQRGYHSRTSINHKIYRVGKGDDEANGATSFDRTKKTITPMGGFVHYGEIKNDFIMVKGCIPGNRKRIVTLRKSLYTNTSRKALEEVSLKWIDTASKFGKGRFQTPAEKHAFMGTLKKDL
notes: also called Mak8 (W255C, P257S); mak8-1 gene product
**Q.** Does B1 bind?
**A.** Result: binds

From patent publication US20050114927A1 (RUTGERS THE STATE UNIVERSITY, published 2005)
